Measured data: PubChem BioAssay AID624099 (ICCB-Longwood, 2012)

Purpose: 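Host factors E2 relies on to silence an HPV18 LCR reporter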 (primary screen)
Cells: human C33A cervical carcinoma cells (HPV-negative) stably expressing BPV1 E2 and an HPV18 LCR luciferase reporter
Reagent: siRNA pool against human genes, 40 nM
Duration: 72 h
Measurement: 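Per-well luciferase luminescence, z-scored on each plate against the plate mean and SD with control wells left out, then averaged across three replicate plates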
Reading the numbers: mean z-score and z-score: higher = stronger reporter signal, weaker E2 silencing
Hit rule: 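Hit if mean z-score reaches 2 and two or more of three replicate z-scores also reach 2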
In all, the deposit lists about 21,000 reagents; below is an unselected part. Over the whole deposit, 497 (2.4%) got an active call. 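Higher z means weaker E2 silencing; only reporter increases were scored, and knock-downs that hurt cell survival may mask genuine repressor factors.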 Reagents against one gene are numbered here.

| gene | reagent no. | mean z-score | z-score, replicate A | z-score, replicate B | z-score, replicate C | activity call |
| --- | --- | --- | --- | --- | --- | --- |
| TNPO3 | 1 | 0.49 | 0.49 | 0.45 | 0.53 | inactive |
| MAP1LC3A | 1 | -0.93 | -0.85 | -1.09 | -0.85 | inactive |
| RIC8B | 1 | 0.82 | 1.12 | 0.95 | 0.4 | inactive |
| CSNK1A1L | 1 | 0.15 | 0.05 | 0.15 | 0.24 | inactive |
| MVB12B | 1 | -0.64 | -0.61 | -0.67 | -0.64 | inactive |
| PRKACB | 1 | -0.7 | -0.83 | -0.62 | -0.66 | inactive |
| MT1L | 1 | -0.23 | -0.3 | -0.05 | -0.33 | inactive |
| F7 | 1 | 0.41 | 0.31 | 0.42 | 0.49 | inactive |
| MKS1 | 1 | 0.01 | -0.06 | -0.48 | 0.57 | inactive |
| ZDHHC1 | 1 | -0.37 | -0.15 | -0.44 | -0.51 | inactive |
| LOC400756 (retired record) | 1 | -0.17 | -0.1 | -0.11 | -0.29 | inactive |
| LOC400742 (retired record) | 1 | 0.55 | 1.08 | 0.57 | 0.01 | inactive |
| P2RX4 | 1 | -0.82 | -0.98 | -0.82 | -0.66 | inactive |
| USP45 | 1 | 0.97 | 0.95 | 1.16 | 0.79 | inactive |
| NANS | 1 | 0.6 | 0.65 | 0.78 | 0.38 | inactive |
| CRIPTO | 1 | -0.08 | -0.14 | -0.07 | -0.04 | inactive |
| ARL6IP6 | 1 | -0.97 | -1.34 | -0.73 | -0.83 | inactive |
| H2AZ1 | 1 | 0.95 | 1.71 | 0.71 | 0.44 | inactive |
| KRTAP11-1 | 1 | -0.22 | 0.02 | -0.09 | -0.6 | inactive |
| TEX47 | 1 | 0.39 | 0.55 | 0.32 | 0.29 | inactive |
| MB21D2 | 1 | -0.45 | -0.67 | -0.31 | -0.38 | inactive |
| CLCA4 | 1 | 1.14 | 0.93 | 1.34 | 1.16 | inactive |
| PRLH | 1 | 1.96 | 2.34 | 1.89 | 1.65 | inactive |
| LAPTM5 | 1 | 0.78 | 0.88 | 0.9 | 0.54 | inactive |
| SOCS3 | 1 | -0.9 | -1.04 | -0.84 | -0.83 | inactive |

Next part, starting with the last 8 of the part before.
| gene | reagent no. | mean z-score | z-score, replicate A | z-score, replicate B | z-score, replicate C | activity call |
| --- | --- | --- | --- | --- | --- | --- |
| H2AZ1 | 1 | 0.95 | 1.71 | 0.71 | 0.44 | inactive |
| KRTAP11-1 | 1 | -0.22 | 0.02 | -0.09 | -0.6 | inactive |
| TEX47 | 1 | 0.39 | 0.55 | 0.32 | 0.29 | inactive |
| MB21D2 | 1 | -0.45 | -0.67 | -0.31 | -0.38 | inactive |
| CLCA4 | 1 | 1.14 | 0.93 | 1.34 | 1.16 | inactive |
| PRLH | 1 | 1.96 | 2.34 | 1.89 | 1.65 | inactive |
| LAPTM5 | 1 | 0.78 | 0.88 | 0.9 | 0.54 | inactive |
| SOCS3 | 1 | -0.9 | -1.04 | -0.84 | -0.83 | inactive |
| RCN1 | 1 | 0.82 | 0.95 | 0.69 | 0.82 | inactive |
| ZSCAN26 | 1 | -0.46 | -0.42 | -0.49 | -0.45 | inactive |
| PMAIP1 | 1 | 0.88 | 0.76 | 1.22 | 0.65 | inactive |
| MYH14 | 1 | 0.46 | 0.43 | 0.26 | 0.68 | inactive |
| ANKDD1B | 1 | -0.71 | -0.55 | -0.87 | -0.7 | inactive |
| IKZF1 | 1 | 0.13 | 0.29 | -0.24 | 0.33 | inactive |
| IKZF1 | 2 | 0.63 | 1 | 0.45 | 0.43 | inactive |
| GPRIN1 | 1 | -0.46 | -0.51 | -0.55 | -0.31 | inactive |
| MIGA2 | 1 | -0.97 | -1.18 | -0.79 | -0.93 | inactive |
| DNAJC5G | 1 | -0.54 | -0.64 | -0.52 | -0.45 | inactive |
| ARK2C | 1 | -0.85 | -0.76 | -1.1 | -0.68 | inactive |
| HECTD3 | 1 | 0.27 | 0.69 | 0.35 | -0.23 | inactive |
| AP3B1 | 1 | 0.29 | 0.5 | 0.28 | 0.09 | inactive |
| IFT56 | 1 | -0.37 | -0.06 | -0.28 | -0.78 | inactive |
| TVP23C | 1 | -0.8 | -0.89 | -0.87 | -0.63 | inactive |
| RAB8A | 1 | 0.58 | 0.8 | 0.76 | 0.17 | inactive |
| TMEM183A | 1 | 1.28 | 0.99 | 1.79 | 1.06 | inactive |
| LOC391711 | 1 | 0.56 | 0.89 | -0.34 | 1.12 | inactive |
| NLRP3 | 1 | -0.36 | -0.24 | -0.33 | -0.52 | inactive |
| PKD1L2 | 1 | -0.17 | -0.25 | -0.18 | -0.09 | inactive |
| SLC6A19 | 1 | -1.42 | -1.19 | -1.63 | -1.45 | inactive |
| LOC402696 (retired record) | 1 | 0.65 | 0.57 | 0.58 | 0.81 | inactive |
| ALX1 | 1 | -0.21 | -0.06 | 0.14 | -0.69 | inactive |
| LOC400479 (retired record) | 1 | 0.4 | 0.26 | 0.53 | 0.4 | inactive |
| PVALB | 1 | -0.8 | -0.75 | -1.05 | -0.6 | inactive |
| TOMM5 | 1 | 0.4 | 0.9 | 0.09 | 0.21 | inactive |
| OSM | 1 | -0.07 | -0.17 | -0.01 | -0.01 | inactive |
| ATF2 | 1 | -0.42 | -0.66 | -0.24 | -0.36 | inactive |
| OR6V1 | 1 | -0.54 | -0.6 | -1.05 | 0.03 | inactive |
| GALNT5 | 1 | -0.73 | -0.58 | -0.68 | -0.93 | inactive |
| KCNA7 | 1 | -0.75 | -0.55 | -0.82 | -0.89 | inactive |
| C6orf89 | 1 | -0.78 | -0.72 | -0.5 | -1.12 | inactive |
